Laboratory results reported in the supplement of paper PMC9931576.
Positions count from the first letter of the chain named. Human monoclonal antibodies against the spike receptor-binding domain (heavy:light variable regions). IC50 against pseudoviruses bearing the spike of naturally observed variants; lower = stronger; >10 µg/ml means not reached at the top dose. No active / inactive call. The stated detection limit is 0.0005 µg/ml; values near or below 0.001 µg/ml lie at the floor of the assay.

B1: BD55-885 (protein)
chain 1: QVQLVQSGAEVKKPGASVRVSCKASGYPFTSFGISWVRQAPGQGLEWMGWISAISAYNGNKNYAQKFQGRVTMTTDTSTTTAYMELRSLRSDDTAVYYCARVGAYYDRSGHFTAENESFQHWGQGTLVSVSS
chain 2: QSVLTQPPSVSGAPGQRVTISCTGSSSNIGAAYDVHWYQQLPGTAPKLLIYGNSNRPSGVPDRFSGSKSGASASLAITGLQAEDEADYYCQSYDSSLSGPVVFGGGTKLTVL
B2: BD55-931 (protein)
chain 1: EEQLVESGGGLVQPGRSLRLSCVASGFSFDDYAMHWVRQAPGKGLEWVSGISWNSGIIGYADSVKGRFTISRDNAKNSLYLQMRSLRTEDTALYYCANNLEAAAGTRAFDIWGHGTMVTVSS
chain 2: DIVMTQSPDSLAVSLGERATIKCKSSQSVLYSSNNKNYLAWYQQKPGQPPKVYIYWASTRALGVPDRFSGSGSGTEFTLTISSLQAEDVAVYYCQQYHTTPYTFGQGTKLEIK
B3: BD55-947 (protein)
chain 1: EVQLVESGGGVVQPGGSLRLSCAASGFTFDNYAIHWVRQAPGRGLEWVSLISGDGTSTYYADSVKGRFTISRDNSKNSLYMQMDSLRTEDTALYYCAKDRDGGLLWGQGTLVTVSS
chain 2: SYELTQPPSVSVSPGQTARITCSGDALPNQYAYWYQQKPGQAPVLVIYKDSERPSGIPERFSGSSSGTTVTLTISGVQAEDEADYYCQSADSSGPYFYVFGTGTKVTVL
B4: BD55-914 (protein)
chain 1: QVQLVQSGAEVKKPGASVKVSCKASGNTFFSSDINWVRQTTGQGLEWMGWMNPNSGNRGSAQRFQGRITMTRNTSISTAYMELSSLISEDTAVYYCASGVGRGRAGTFHEDAFDIWGQGTKVTVSS
chain 2: DIQMTQSPSSLSASVGDRVTITCRASQGIRNSLAWYQQRPGKAPKLLLYGASILETGVPSRFSGSGSGTDYTLTISSLQPEDFATYYCQHYYTTPFTFGPGTKVDFK
B5: XGv-014 (protein)
chain 1: EVQLVESGGGLVRPGRSLTLSCAASGFMFDDYAMHWVRQPPGKGLEWVSGISWNSASVGYADSVKGRFTISRDNAKNSLYLRMNSLRPEDTALYYCAKLGVTTAMVKSYFDHWGQGTLVTVSS
chain 2: EIVMTQSPATLSLSPGERATLSCRASQSVSGNLAWYQQRPGQVPRLLIYGTSTRATGIPARFSGSGSGTEFTLTISSLQSEDFAVYYCQQYNNWPPGVTFGPGTKVDIK
B6: XGv-017 (protein)
chain 1: EVQLVESGGGLIQPGGSLRLSCAASGVTVSSNYMNWVRQAPGKGLEWVSVIYPGGTRDYSDSVKGRFTISRDSSKNTLYLQMNSLRDEDTAFYYCARDLVVYGMDVWGQGTTVTVTS
chain 2: DIQLTQSPSSLSASVGDRVTITCRASQGISSYLAWYQQKPGKAPKLLIYAASTLQSGVPSRFSGSGSGTDFTLTISSLQPEDFAAYYCQLLNTYPLTFGGGTKVEIK
B7: BD55-902 (protein)
chain 1: QVQLVQSGAEVKKPGSSVKVSCKASRGTFSSYAINWVRQAPGQGLEWMGRIIPILGIVNYAQKFQGRVTLTADKSTSTAYMELSSLRSEDTAVFYCARGEYSGYDGDDYYYYYGIDVWGQGTTVTVSS
chain 2: SYELTQPPSVSVSPGQTARITCSGDALSKQYAYWYQQKPGQAPVLIIYKDSERPSGIPERFSGSSSGTTVTLTISGVQAEDEADYYCQSADSSNTYVLFGGGTKLTVL
B8: XGv-018 (protein)
chain 1: QVQLVESGGGVVQPGRSLRLSCAASGFTFSTYGMHWVRQAPGKGLEWVAVILNDGSGKLYADSVKGRFTISRDNSKNTLYLQMSSLRAEDTAVYFCARDQGELVTYFDYWGQGTLVTVSS
chain 2: DIQMTQSPSSLSASVGDRVTITCRASQSISRYLNWYQHKPGKAPKLLIYTTSNLQSGVPSRFSGSGSGTDFTLTISSLHPEDFATYYCQQSYNTPSWTFGQGTKVEIK
B9: BD55-913 (protein)
chain 1: EVQLVQSGAEVKKPGESLRISCKGSGYSFSTYWITWVRQMPGKGLEWMGKIDPSDSYTNYSPSFQGHVTFSADKSISTAYLQWSSLKASDTAMYYCARVDYDILTDLYYFDYWGQGTLVTVSS
chain 2: DIQMTQSPSSLSASVGDRVTITCRASQSIGSYLNWYQQKPGKAPELLIYAASSLQSGVPSRFSGSGSGTDFTLTISSLQPEDFATYYCQQSYSTSFTFGPGTEVDIK
B10: BD55-906 (protein)
chain 1: EVQLVESGGGLVQPGGSLRLSCAASGLTVSSNYMSWVRQAPGKGLEWVSVIYSGGSTFYADSVKGRFTISRHNSKDTLYLQMNSLRVEDTAVYYCARDLIYYGMDVWGQGTTVTVSS
chain 2: DIQLTQSPSFLSASVGDRVTITCRASQGISNYLAWYQQKPGKAPKLLIYAASTLQSGVPSRFSGSGSGTEFTLTISSLQPEDFATYYCQQLDSYPPAFGQGTRLEIK
B11: XG2v-098 (protein)
chain 1: B10 chain 1 with L27F, S31R, V50L, F58D, K64Q, H72D, D76N, V87A, I100Q, Y101F
chain 2: DIQMTQSPSSVSASVGDRVTITCRASQGISSWLAWYQQKPGKAPKLLIYAASTLQSGVPLRFSGSGSGTDFTLTISSLQPEDFAAYYCQQANSFPFTFGPGTKVDIK
B12: BD55-899 (protein)
chain 1: QVQLVQSGAEVKKPGSSVKVSCKASGGTFSSYAISWVRQAPGQGLEWMGRIIPILGIANYAQKFQGRVTITADKSTSTAYMELSSLRSEDTAVYYCARENHGGNSEDFDYWGQGTLVTVSS
chain 2: QSVLTQPPSVSGAPGQRVTISCTGSSSNIGAGYDVHWYQQLPGTAPKLLIYGNSNRPSGVPDRFSGSKSGTSASLAITGLQAEDEADYYCQSYDSSLSGSVFGGGTQLTVL

What was measured:
Test in all cases: pseudovirus neutralization IC50; higher = weaker neutralization
[1] = target: SARS-CoV-2 Omicron BA.1 spike pseudovirus
Experimental: (§1)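 Single-round VSV luciferase pseudovirus mixed with antibody dilutions for 1 h and put on Huh-7 cells for about a day; IC50 from the dose curve.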

[2] = target: SARS-CoV-2 Omicron BA.2 spike pseudovirus
Experimental: as §1

[3] = target: SARS-CoV-2 Omicron BA.2.75 spike pseudovirus
Experimental: as §1

[4] = target: SARS-CoV-2 Omicron BA.5 spike pseudovirus
Experimental: as §1

[5] = target: SARS-CoV-2 Omicron BQ.1.1 spike pseudovirus
Experimental: as §1

[6] = target: SARS-CoV-2 Omicron XBB spike pseudovirus
Experimental: as §1

[7] = target: SARS-CoV-2 early D614G spike pseudovirus
Experimental: as §1

Binder | pseudovirus neutralization IC50 [1] | pseudovirus neutralization IC50 [2] | pseudovirus neutralization IC50 [3] | pseudovirus neutralization IC50 [4] | pseudovirus neutralization IC50 [5] | pseudovirus neutralization IC50 [6] | pseudovirus neutralization IC50 [7]
B1 | 3.58 µg/mL | > 10 µg/mL | > 10 µg/mL | > 10 µg/mL | > 10 µg/mL | > 10 µg/mL | 0.455 µg/mL
B2 | > 10 µg/mL | > 10 µg/mL | > 10 µg/mL | > 10 µg/mL | > 10 µg/mL | > 10 µg/mL | > 10 µg/mL
B3 | > 10 µg/mL | > 10 µg/mL | > 10 µg/mL | > 10 µg/mL | > 10 µg/mL | > 10 µg/mL | > 10 µg/mL
B4 | > 10 µg/mL | > 10 µg/mL | > 10 µg/mL | > 10 µg/mL | > 10 µg/mL | > 10 µg/mL | > 10 µg/mL
B5 | > 10 µg/mL | 8.91 µg/mL | > 10 µg/mL | > 10 µg/mL | > 10 µg/mL | > 10 µg/mL | 9.53 µg/mL
B6 | 1.88 µg/mL | 8.83 µg/mL | > 10 µg/mL | > 10 µg/mL | > 10 µg/mL | > 10 µg/mL | 0.0279 µg/mL
B7 | > 10 µg/mL | > 10 µg/mL | > 10 µg/mL | > 10 µg/mL | > 10 µg/mL | > 10 µg/mL | > 10 µg/mL
B8 | 6.5 µg/mL | 5.3 µg/mL | 5.35 µg/mL | 4.12 µg/mL | 4.85 µg/mL | 3.71 µg/mL | 1.37 µg/mL
B9 | > 10 µg/mL | > 10 µg/mL | > 10 µg/mL | > 10 µg/mL | > 10 µg/mL | > 10 µg/mL | 4.18 µg/mL
B10 | 0.593 µg/mL | 0.349 µg/mL | > 10 µg/mL | 4.94 µg/mL | > 10 µg/mL | > 10 µg/mL | 0.00367 µg/mL
B11 | > 10 µg/mL | > 10 µg/mL | > 10 µg/mL | > 10 µg/mL | > 10 µg/mL | > 10 µg/mL | 0.0935 µg/mL
B12 | > 10 µg/mL | > 10 µg/mL | > 10 µg/mL | > 10 µg/mL | > 10 µg/mL | > 10 µg/mL | > 10 µg/mL
